A mixed list of measured activities; the numbers were collected in NIAID ChemDB.

Shared fields: tests in culture

ECn is the concentration giving n% inhibition of infection, replication or growth. Inhibition is in % at the dose shown (toxicity tests: loss of growth or viability). Blank or dashed fields: not listed here. Neighbouring rows are from separate reports.

N=c1ncn(Cc2ccco2)c2nc[nH]c12 ; cells: BSC-1 ; species: Vaccinia virus ; endpoint: inhibition ; tested at: 50 µg/mL ; result: 0%
C1=C(c2ccccc2)COc2ccccc21 ; strain: TYPE 2 ; cells: HEP-2 ; species: Poliovirus ; endpoint: EC50 ; result: <10 µM
Cn1cc(NC(=O)c2cc(NC(=O)c3cc([N+](=O)[O-])cn3C)cn2C)cc1C(=O)NCCC(=N)N ; strain: Noguchi ; cells: BSC-1 ; species: Vaccinia virus ; endpoint: inhibition ; tested at: 100 µg/mL ; result: 0%
O=c1[nH]cnc2c1ncn2[C@@H]1C=C(CO)[C@@H](O)[C@H]1O ; strain: 7124 ; cells: VERO ; species: Variola virus ; endpoint: EC50 ; result: >100 µg/mL
Cc1ccc(C(=O)CCCCOc2ccc(C3=NCC(C)O3)cc2Cl)s1 ; strain: TYPE 2 ; cells: VERO ; species: Poliovirus ; endpoint: EC50 ; result: 3.63 µM
CC(=O)N[C@H]1[C@H]([C@H](O)[C@H](O)CO)OC(C(=O)O)=C[C@@H]1N=C(N)N ; strain: H7N3 A/FPV/ENG/1/63 ; cells: MDCK ; species: Influenza A virus ; endpoint: EC90 ; result: ≥1 µM
N=c1ncn(Cc2cccc([N+](=O)[O-])c2)c2nc[nH]c12 ; cells: BSC-1 ; species: Vaccinia virus ; endpoint: inhibition ; tested at: 50 µg/mL ; result: 0%
Nc1ccn(C[C@H]2COP(=O)(O)CO2)c(=O)n1 ; strain: Isolate 7124 ; cells: VERO ; species: Variola virus ; endpoint: EC50 ; result: 26 µg/mL
Nc1nc(=O)n([C@@H]2C=C(CO)[C@@H](O)[C@H]2O)cc1I ; strain: 7124 ; species: Variola virus ; endpoint: EC50 ; result: >100 µg/mL
COC(=O)c1ncn([C@@H]2C[C@@H](Oc3ccc(C)cc3)[C@H](COc3ccc(C)cc3)O2)c1C(=O)OC ; species: Ebola virus ; endpoint: EC50 ; result: 10 µg/mL
NC(=O)c1csc([C@@H]2O[C@H](CO)[C@@H](O)[C@H]2O)n1 ; strain: Isolate Bangladesh ; cells: VERO ; species: Variola virus ; endpoint: EC50 ; result: 22.6 µg/mL
Nc1nc(=O)n([C@@H]2C=C(CO)[C@@H](O)[C@H]2O)cc1Cl ; strain: Bangladesh 1975 ; species: Variola virus ; endpoint: EC50 ; result: 22.8 µg/mL
Cn1cc(NC(=O)c2cc(NC(=O)CN=C(N)N)cn2C)c(C(=O)NCCC(=N)N)c1 ; strain: Noguchi ; cells: BSC-1 ; species: Vaccinia virus ; endpoint: inhibition ; tested at: 10 µg/mL ; result: 0%
CCn1cnc(=N)c2[nH]cnc21 ; cells: BSC-1 ; species: Vaccinia virus ; endpoint: inhibition ; tested at: 50 µg/mL ; result: 0%
Brc1ccc(C2=Cc3ccccc3OC2)cc1 ; strain: II (TYPE 2) ; cells: HEP-2 ; species: Poliovirus ; endpoint: inhibition ; tested at: 10 µM ; result: 0%
Cc1ccc(C(=O)CCCCCCOc2ccc(C3=N[C@@H](C)CO3)cc2)s1 ; strain: TYPE 3 ; cells: VERO ; species: Poliovirus ; endpoint: EC50 ; result: 3.92 µM
Cc1ccccc1Cn1cnc(=N)c2[nH]cnc21 ; cells: BSC-1 ; species: Vaccinia virus ; endpoint: inhibition ; tested at: 12 µg/mL ; result: 0%
Cc1ccc(C(=O)CCCCCCOc2ccc(C3=NCC(C)O3)cc2)s1 ; strain: TYPE 2 ; cells: VERO ; species: Poliovirus ; endpoint: EC50 ; result: 5.41 µM
Clc1ccc(C2CCc3ccccc3O2)c(Cl)c1 ; strain: IB (TYPE 2) ; cells: HEP-2 ; species: Poliovirus ; endpoint: inhibition ; tested at: 10 µM ; result: 10%
Nc1ncnc2c1ncn2[C@@H]1C=C(CO)[C@@H](O)[C@H]1O ; strain: BSH ; cells: VERO ; species: Variola virus ; endpoint: EC50 ; result: 0.14 µg/mL
Clc1ccc2c(c1)C=C(c1ccc(Br)cc1)CO2 ; strain: II (TYPE 2) ; cells: HEP-2 ; species: Poliovirus ; endpoint: inhibition ; tested at: 10 µM ; result: 4%
Nc1ccn(C[C@@H](CO)OCP(=O)(O)O)c(=O)n1 ; strain: Isolate Rumbec ; cells: VERO ; species: Variola virus ; endpoint: EC50 ; result: 10 µg/mL
c1ccc(C2COc3ccccc3C2)cc1 ; strain: IA (TYPE 2) ; cells: HEP-2 ; species: Poliovirus ; endpoint: EC50 ; result: <10 µM
Cc1ccc(C(=O)CCCCOc2ccc(C3=NCCO3)cc2)s1 ; strain: TYPE 1 ; cells: VERO ; species: Poliovirus ; endpoint: EC50 ; result: >29.01 µM

A second listing of 2 rows from above:

compound	strain	cells	species	endpoint	tested at	result
Cn1cc(NC(=O)c2cc(NC(=O)c3cc([N+](=O)[O-])cn3C)cn2C)cc1C(=O)NCCC(=N)N	Noguchi	BSC-1	Vaccinia virus	inhibition	100 µg/mL	0%
Nc1ccn(C[C@H]2COP(=O)(O)CO2)c(=O)n1	Isolate 7124	VERO	Variola virus	EC50	-	26 µg/mL